# Test results as given in PubChem BioAssay AID602142 (NMMLSC, 2011).
# The entries are a selection whose mix differs from that of the whole data set. Active and inactive are the calls of the source. No rule for the calls is given here.
# Biological target: Lethal factor (Bacillus anthracis) (UniProt P15917)
# Test: anthrax lethal factor cleavage blockers – biochemical, multiplex microsphere, cherry pick 1, confirmation (AID 602142)
# Settings: multiplex microsphere protease cleavage assay, LF; at 10 µM; stronger effect = higher value
smiles,measurement,value
CN1CCC(Nc2ccc(F)c(Cl)c2)CC1,inhibition,inactive: 0.1%
